Data source: PubChem BioAssay AID1259414 (Drosophila RNAi Screening Center, 2018)

Purpose: 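Host factors increasing or decreasing Wolbachia levels in cultured fly cells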 (primary screen)
Cell system: Drosophila JW18 cells infected with Wolbachia
Reagent: long dsRNA against Drosophila genes, 0.25 µg dsRNA per well of a 384-well plate
Time to read-out: 5 days
Challenge: cells persistently infected with Wolbachia before knock-down; no added drug
Detection: 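Imaged fluorescence in situ signal for Wolbachia 23S rRNA per DAPI-counted host cell, given as a robust z-score within each plate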
Reading the numbers: Wolbachia per cell robust z: higher = more Wolbachia per host cell than the plate typical
Active means: 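Hit when robust z is 1.5 or more, or -1.5 or less, in at least two of three replicates; excludes dsRNAs with several or no targets, genes not expressed in JW18 and well A1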
In all, the deposit lists about 24,000 reagents; this is a random part of those that have a named target and a result. Of all reagents, about 1,210 (5%) were called active. 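Inactive calls also include excluded dsRNAs with several or no targets, genes unexpressed in JW18, and well A1, regardless of score.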 Names joined by + are all predicted targets of the reagent.

gene | DRSC id | Wolbachia per cell robust z, rep 1 | Wolbachia per cell robust z, rep 2 | Wolbachia per cell robust z, rep 3 | outcome
CheA84a | DRSC37918 | 0.85 | -0.255 | 0.907 | inactive
CG8420 | DRSC16418 | 1.19 | 1.16 | -0.0837 | inactive
CG14767 | DRSC06500 | -0.656 | 0.13 | 0.461 | inactive
CG14767 | DRSC28418 | -0.49 | -0.906 | -0.158 | inactive
RYBP | DRSC04117 | -2.6 | 0.212 | -4.2 | inactive
RYBP | DRSC27464 | -1.38 | 0.639 | -0.165 | inactive
Twdlalpha | DRSC19914 | -0.177 | -1.29 | -3.36 | inactive
Twdlalpha | DRSC28661 | -1.76 | -2.27 | -1.29 | inactive
AOX4 | DRSC15337 | -0.773 | 0.418 | -0.106 | inactive
AOX4 | DRSC26337 | 0.222 | 0.383 | 1.1 | inactive
STUB1 | DRSC03282 | 0.659 | -6.23 | 0.188 | inactive
CG9331 | DRSC03206 | 1.68 | -1.23 | 1.24 | inactive
CG9331 | DRSC28815 | -0.229 | -0.313 | -0.403 | inactive
bam | DRSC16907 | 0.124 | 0.587 | -0.39 | inactive
bam | DRSC39113 | -0.992 | 0.218 | -2.73 | inactive
CG15286 | DRSC23386 | 1.03 | 1.14 | 2.52 | inactive
Gr10b | DRSC19477 | 0.901 | 0.327 | 0.606 | inactive
Gr10b | DRSC28702 | -0.169 | 0.595 | 0.314 | inactive
CG12848 | DRSC04128 | 0.846 | 0.719 | -2.29 | inactive
Gapdh2 | DRSC20246 | 1.44 | 0.63 | 1.1 | inactive
Gapdh2 | DRSC24596 | 0.349 | 0.0299 | 0.207 | inactive
Cds + Setx | DRSC27090 | 0.792 | -0.289 | -0.71 | inactive
CG16749 | DRSC15146 | -1.13 | -0.148 | -4.01 | inactive
CG16749 | DRSC25605 | -0.894 | -0.0947 | -2.15 | inactive
dally | DRSC08954 | 0.392 | -0.549 | 0.286 | inactive
dally | DRSC11338 | 0.219 | -0.687 | 0.373 | inactive
MTPAP | DRSC18585 | 0.625 | 0.308 | 0.262 | inactive
MTPAP | DRSC30055 | 0.208 | -0.12 | 0.735 | inactive
Cln7 | DRSC11005 | 0.113 | 0.00362 | -0.359 | inactive
Hecw | DRSC18261 | -1.63 | -1.86 | -1.32 | active
Hecw | DRSC18276 | -1.25 | -1.02 | -1.29 | inactive
Hecw | DRSC25872 | 0.0921 | -0.815 | 0.466 | inactive
Hecw | DRSC41302 | 0.521 | 0.209 | 0.489 | inactive
CG32054 | DRSC10684 | 0.539 | -0.828 | 0.627 | inactive
CG32054 | DRSC24449 | -0.368 | 0.0588 | -0.449 | inactive
xit | DRSC18364 | -0.472 | 0.383 | -6.65 | inactive
CG6254 | DRSC16002 | -0.55 | -0.695 | -0.117 | inactive
CG6138 | DRSC02933 | 0.0995 | -0.605 | -0.531 | inactive
CG32985 | DRSC02634 | 0.965 | 0.489 | -0.156 | inactive
CG32985 | DRSC24453 | 0.196 | -7.7 | 0.0496 | inactive
kek3 | DRSC03553 | -5.19 | -1.61 | 0.322 | inactive
kek3 | DRSC22830 | 0.524 | 0.0115 | 0.993 | inactive
kek3 | DRSC24250 | 1.04 | -0.184 | -0.412 | inactive
Muc68E | DRSC09146 | 0.374 | 0.69 | 0.0192 | inactive
Muc68E | DRSC26478 | -0.853 | 0.0749 | -2.18 | inactive
lncRNA:CR42657 | DRSC41395 | -0.513 | -0.253 | 0.313 | inactive
CG32284 | DRSC08025 | -0.617 | 0.863 | 1.08 | inactive
pigeon | DRSC03565 | 0.425 | 0.391 | 0.543 | inactive
Osi22 | DRSC16442 | -0.305 | 1.13 | 1.17 | inactive
Osi22 | DRSC27176 | 0.794 | 1.27 | 1.43 | inactive
CG31515 | DRSC13610 | 0.471 | 1.62 | 0.461 | inactive
fwe | DRSC10594 | 0.813 | 0.624 | 0.727 | inactive
fwe | DRSC21400 | 0.248 | 0.251 | 0.0421 | inactive
rtp | DRSC12132 | -0.0819 | 0.0169 | 0.663 | inactive
CG8852 | DRSC00719 | -1.12 | -3.56 | -0.68 | inactive
CG8852 | DRSC24465 | 1.23 | -0.075 | -0.316 | inactive
Obp83b | DRSC12360 | 0.113 | -0.977 | -2.25 | inactive
Obp83b | DRSC25688 | 0.0188 | -0.448 | 0.251 | inactive
wun | DRSC07719 | -0.263 | -2.48 | 1.25 | inactive
Tet | DRSC08550 | -0.0211 | -0.389 | -0.645 | inactive
Tet | DRSC08646 | -0.309 | -0.223 | -0.221 | inactive
Tet | DRSC26922 | -0.883 | -1.09 | -0.187 | inactive
Tet | DRSC28377 | 0.158 | -1.91 | -4.01 | active
Oatp58Da | DRSC04365 | -2.94 | 0.23 | -0.429 | inactive
Oatp58Da | DRSC25499 | 0.0202 | 0.826 | -0.537 | inactive
CG31659 | DRSC00760 | 0.0479 | 0.431 | -0.457 | inactive
CG5646 | DRSC15853 | 1.23 | 0.408 | 0.233 | inactive
CG5646 | DRSC29759 | -3.34 | -0.776 | -4.4 | active
Naa80 | DRSC16429 | -0.462 | -0.432 | -0.481 | inactive
Naa80 | DRSC28038 | 0.185 | 0.393 | 0.59 | inactive
l(3)04053 | DRSC11640 | 0.316 | 1.22 | -1.35 | inactive
IA-2 | DRSC00304 | -0.566 | -0.328 | 0.21 | inactive
IA-2 | DRSC00652 | -0.16 | 1.79 | 2 | active
IA-2 | DRSC23335 | -1.14 | -0.805 | -1.2 | inactive
IA-2 | DRSC24588 | -1.02 | -0.148 | 0.521 | inactive
SteXh:CG42398 + Ste:CG33244 + Ste:CG33246 + 11 more | DRSC19004 | -7.59 | 0.49 | -2.23 | inactive
Gr8a | DRSC18043 | -1.26 | 0.827 | 0.0158 | inactive
CG6153 | DRSC02935 | 0.0731 | -0.322 | -0.303 | inactive
Pfdn6 | DRSC10915 | -2.12 | -0.165 | 0.427 | inactive
CG30412 | DRSC04564 | 0.391 | -0.361 | -0.164 | inactive
CG30412 | DRSC25522 | 0.203 | 0.53 | -0.258 | inactive
RluA-1 | DRSC02240 | -0.146 | -0.284 | -5.04 | inactive
RluA-1 | DRSC03060 | 0.969 | 0.736 | 0.566 | inactive
CG15877 | DRSC08485 | -2.45 | 0.179 | 0.584 | inactive
Ppi1 | DRSC15421 | -0.308 | 0.594 | 0.304 | inactive
CG7298 | DRSC10802 | -0.354 | -0.158 | 0.222 | inactive
ppk19 | DRSC15321 | -5.59 | -0.925 | 0.53 | inactive

In a second layout: results already given.
CG15286 [DRSC23386]
- Wolbachia per cell robust z, rep 1: 1.03
- Wolbachia per cell robust z, rep 2: 1.14
- Wolbachia per cell robust z, rep 3: 2.52
- outcome: inactive

Gr10b [DRSC19477]
- Wolbachia per cell robust z, rep 1: 0.901
- Wolbachia per cell robust z, rep 2: 0.327
- Wolbachia per cell robust z, rep 3: 0.606
- outcome: inactive

Gr10b [DRSC28702]
- Wolbachia per cell robust z, rep 1: -0.169
- Wolbachia per cell robust z, rep 2: 0.595
- Wolbachia per cell robust z, rep 3: 0.314
- outcome: inactive

CG12848 [DRSC04128]
- Wolbachia per cell robust z, rep 1: 0.846
- Wolbachia per cell robust z, rep 2: 0.719
- Wolbachia per cell robust z, rep 3: -2.29
- outcome: inactive

Gapdh2 [DRSC20246]
- Wolbachia per cell robust z, rep 1: 1.44
- Wolbachia per cell robust z, rep 2: 0.63
- Wolbachia per cell robust z, rep 3: 1.1
- outcome: inactive

Gapdh2 [DRSC24596]
- Wolbachia per cell robust z, rep 1: 0.349
- Wolbachia per cell robust z, rep 2: 0.0299
- Wolbachia per cell robust z, rep 3: 0.207
- outcome: inactive

Cds + Setx [DRSC27090]
- Wolbachia per cell robust z, rep 1: 0.792
- Wolbachia per cell robust z, rep 2: -0.289
- Wolbachia per cell robust z, rep 3: -0.71
- outcome: inactive

CG16749 [DRSC15146]
- Wolbachia per cell robust z, rep 1: -1.13
- Wolbachia per cell robust z, rep 2: -0.148
- Wolbachia per cell robust z, rep 3: -4.01
- outcome: inactive

CG16749 [DRSC25605]
- Wolbachia per cell robust z, rep 1: -0.894
- Wolbachia per cell robust z, rep 2: -0.0947
- Wolbachia per cell robust z, rep 3: -2.15
- outcome: inactive

dally [DRSC08954]
- Wolbachia per cell robust z, rep 1: 0.392
- Wolbachia per cell robust z, rep 2: -0.549
- Wolbachia per cell robust z, rep 3: 0.286
- outcome: inactive

dally [DRSC11338]
- Wolbachia per cell robust z, rep 1: 0.219
- Wolbachia per cell robust z, rep 2: -0.687
- Wolbachia per cell robust z, rep 3: 0.373
- outcome: inactive
